One series concerns DENV-4 strain H241. As to the kind of experiment: Tetravalent RT-qPCR assay, serotype 4. Conditions: RT-qPCR serotype 4 H241, Protocol A. In kind it is cell-based, Dengue virus. The protocol:
(§1) Tetravalent reverse transcriptase quantitative-PCR (RT-qPCR) assay The antiviral activity of the compounds of the invention was tested against DENV-1 strain TC974#666 (NCPV), DENV-2 strain 16681, DENV-3 strain H87 (NCPV) and DENV-4 strain H241 (NCPV) in a RT-qPCR assay. Therefore, Vero cells were infected with either DENV-1, or -2, or -3, or -4 in the presence or absence of test compounds. At day 3 post-infection, the cells were lysed and cell lysates were used to prepare cDNA of both a viral target (the 3′UTR of DENV; Table 2) and a cellular reference gene (β-actin, Table 2). Subsequently, a duplex real time PCR was performed on a Lightcycler480 instrument. The generated Cp value is inversely proportional to the amount of RNA expression of these targets. Inhibition of DENV replication by a test compound results in a shift of Cp's for the 3′UTR gene. On the other hand, if a test compound is toxic to the cells, a similar effect on β-actin expression will be observed. The comparative ΔΔCp method is used to calculate EC50, which is based on the relative gene expression of the target gene (3′UTR) normalized with the cellular housekeeping gene (β-actin). In addition, CC50 values are determined based on the Cp values acquired for the housekeeping gene β-actin.
(§2) The culture medium consisted of minimal essential medium supplemented with 2% of heat-inactivated fetal calf serum, 0.04% gentamycin (50mg/mL) and 2 mM of L-glutamine. Vero cells, obtained from ECACC, were suspended in culture medium and 75 μL/well was added in 96-well plates (10000 cells/well), which already contain the antiviral compounds. […] In addition, each plate contains wells which are assigned as virus controls (containing cells and virus in the absence of compound) and cell controls (containing cells in the absence of virus and compound). Once the cells were added in the plates, the plates were incubated in a fully humidified incubator (37° C., 5% CO2) until the next day. Dengue viruses serotype-1, 2, 3 and 4 were diluted in order to obtain a Cp of ˜22-24 in the assay. Therefore, 25 μL of virus suspension was added to all the wells containing test compound and to the wells assigned as virus control. In parallel, 25 μL of culture medium was added to the cell controls. Next, the plates were incubated for 3 days in a fully humidified incubator (37° C., 5% CO2). After 3 days, the supernatant was removed from the wells and the cells were washed twice with ice-cold PBS (˜100 μL). The cell pellets within the 96-well plates were stored at −80° C. for at least 1 day. Next, RNA was extracted using the Cells-to-CT™ lysis kit, according to the manufacturer's guideline (Life Technologies). The cell lysates can be stored at −80° C. or immediately used in the reverse transcription step.
(§3) In preparation of the reverse transcription step, mix A (table 3A) was prepared and 7.57 μL/well was dispensed in a 96-well plate. After addition of 5 μL of the cell lysates, a five minute denaturation step at 75° C. was performed (table 3B). Afterwards, 7.43 μL of mix B was added (table 3C) and the reverse transcription step was initiated (table 3D) to generate cDNA.
(§4) Finally, a RT-qPCR mix was prepared, mix C (table 4A), and 22.02 μL/well was dispensed in 96-well LightCycler qPCR plates to which 3μL of cDNA was added and the qPCR was performed according to the conditions in table 4B on a LightCycler 480.
(§5) Using the LightCycler software and an in-house LIMS system, dose response curves for each compound were calculated and the half maximal effective concentration (EC50) and the half maximal cytotoxic concentration (CC50) were determined (Tables 5-8).

The subject of a further series is DENV-3 strain H87. As to the kind of experiment: Tetravalent RT-qPCR assay, serotype 3. In kind it is cell-based, Dengue virus. Conditions: RT-qPCR serotype 3 H87, Protocol A. The method, then: as §1, §2, §3, §4, §5
Background: Real-time PCR tracks product formation cycle by cycle.

For another series, the system named is DENV-1 strain TC974#666. Nature of the series: Tetravalent RT-qPCR assay, serotype 1. In kind it is cell-based, Dengue virus. Conditions: RT-qPCR serotype 1 TC974#666, Protocol A. The protocol: as §1, §2, §3, §4, §5
A further series has as its system DENV-2 16681 strain. As to the kind of experiment: DENV-2 antiviral assay (eGFP-labeled virus in Vero cells). Conditions: SI=CC50/EC50, DENV-2 antiviral assay. In kind it is cell-based, Dengue virus. The method, then:
The antiviral activity of all the compounds of the invention was tested the against DENV-2 16681 strain which was labeled with enhanced green fluorescent protein (eGPF). The culture medium consists of minimal essential medium supplemented with 2% of heat-inactivated fetal calf serum, 0.04% gentamycin (50 mg/mL) and 2 mM of L-glutamine. Vero cells, obtained from ECACC, were suspended in culture medium and 25 μL was added to 384-well plates (2500 cells/well), which already contain the antiviral compounds. Typically, these plates contain a 5-fold serial dilution of 9 dilution steps of the test compound at 200 times the final concentration in 100% DMSO (200 nL). […] Finally, each plate contains wells which are assigned as virus controls (containing cells and virus in the absence of compound), cell controls (containing cells in the absence of virus and compound) and medium controls (containing medium in the absence of cells, virus and compounds). To the wells assigned as medium control, 25 μL of culture medium was added instead of Vero cells. Once the cells were added to the plates, the plates were incubated for 30 minutes at room temperature to allow the cells to distribute evenly within the wells. Next, the plates were incubated in a fully humidified incubator (37° C., 5% CO2) until the next day. Then, DENV-2 strain 16681, labeled with eGFP, was added at a multiplicity of infection (MOI) of 0.5. Therefore, 15 μL of virus suspension was added to all the wells containing test compound and to the wells assigned as virus control. In parallel, 15 μL of culture medium was added to the medium and cell controls. Next, the plates were incubated for 3 days in a fully humidified incubator (37° C., 5% CO2). At the day of the read out, the eGFP fluorescence was measured using an automated fluorescence microscope at 488 nm (blue laser). Using an in-house LIMS system, inhibition dose response curves for each compound were calculated and the half maximal effective concentration (EC50) was determined. Therefore, the percent inhibition (I) for every test concentration is calculated using the following formula: I=100*(ST-SCC)/(SVC-SCC), ST, SCC and SVC are the amount of eGFP signal in the test compound, cell control and virus control wells, respectively. The EC50 represents the concentration of a compound at which the virus replication is inhibited with 50%, as measured by a 50% reduction of the eGFP fluorescent intensity compared to the virus control. The EC50 is calculated using linear interpolation (Table 1).

The test system of another series is DENV-2 strain 16681. Nature of the series: Tetravalent RT-qPCR assay, serotype 2. The format is cell-based, Dengue virus. To be noted: RT-qPCR serotype 2 16681, Protocol A. The method, then: as §1, §2, §3, §4, §5
In the next series the test system is DENV-2. To be noted: analogous DENV-2 antiviral assay, reported activity; cited from earlier work.

This is an account of results in patent publication US20200339511A1, “Substituted indoline derivatives as dengue viral replication inhibitors” (priority 2016, published 2020).

Where only a bound is given, the exact number is not on record here.

For `COc1cc(NC(C(=O)N2CCc3cc(OC)c(OC(F)(F)F)cc32)c2ccc(Cl)cc2)cc(OCCO)c1` (single isomer, unassigned) [Compound 13A, 2-(4-chlorophenyl)-2-((3-(2-hydroxyethoxy)-5-methoxyphenyl)amino)-1-(5-methoxy-6-(trifluoromethoxy)indolin-1-yl)ethanone], the SI was more than 9.4 with DENV-4 strain H241; more than 78 in the series with DENV-3 strain H87; more than 416 with DENV-1 strain TC974#666; 3970 in the series with DENV-2 16681 strain; more than 4280 with DENV-2 strain 16681.

For `COc1cc(NC(C(=O)N2CCc3cc(F)c(C(F)(F)F)cc32)c2ccc(Cl)cc2)cc(OCCO)c1` (single isomer, unassigned) [Compound 12A, 2-(4-chlorophenyl)-1-(5-fluoro-6-(trifluoromethyl)indolin-1-yl)-2-((3-(2-hydroxyethoxy)-5-methoxyphenyl)amino)ethanone], the SI in the series on DENV-4 strain H241 was 24; with DENV-3 strain H87 it was more than 67; in the series on DENV-1 strain TC974#666, more than 934; in the series with DENV-2 16681 strain it was 5020; in the series on DENV-2 strain 16681, more than 794.

Regarding `COc1cc(NC(C(=O)N2CCc3ccc(C(F)(F)F)cc32)c2ccc(Cl)cc2F)cc(OCCO)c1` (single isomer, unassigned) [Compound 2B, 2-(4-chloro-2-fluorophenyl)-2-((3-(2-hydroxyethoxy)-5-methoxyphenyl)amino)-1-(6-(trifluoromethyl)indolin-1-yl)ethanone], the SI came out at 33 in the series on DENV-4 strain H241; 156 in the series with DENV-3 strain H87; 2670 in the series on DENV-1 strain TC974#666; 3750 in the series on DENV-2 16681 strain; 1880 in the series on DENV-2 strain 16681.

Consider `CNC(=O)c1cccc(NC(C(=O)c2c[nH]c3ccccc23)c2ccccc2)c1` (stereo not drawn) [(170) of WO-2013/045516], for which the SI in the series with DENV-2 was 58.

Turning to `COc1cc(NC(C(=O)N2CCc3ccc(C(F)(F)F)cc32)c2ccc(Cl)cc2)cc(OCCO)c1` (single isomer, unassigned) [Compound 4A, 2-(4-chlorophenyl)-2-((3-(2-hydroxyethoxy)-5-methoxyphenyl)amino)-1-(6-(trifluoromethyl)indolin-1-yl)ethanone], the SI in the series on DENV-4 strain H241 was found to be 11; in the series with DENV-3 strain H87, 179; with DENV-1 strain TC974#666 it was 1270; in the series on DENV-2 16681 strain, 3878; with DENV-2 strain 16681 it was 894.
